Pooled drug test results. Numbers come from NIAID ChemDB, via PubChem.

All rows: growth or infection tests; species: Hepatitis C virus; read-out: EC50

Neighbouring rows are from separate reports.

SMILES | cells | method | changes | conditions | strain or isolate | result
CC(=O)N1c2cccc(O)c2NC2=C(C(=O)CC(C)(C)C2)C1c1ccc(C(F)(F)F)cc1F | - | luciferase / reporter gene / replicon | - | - | 1b | 3.75 µM
CC(C)CC[C@@]1(C)C(=O)C(C2=NS(=O)(=O)c3cc(NS(C)(=O)=O)ccc3N2)=C(O)c2ccccc21 | Huh7 | luciferase | - | - | 1b | 0.0037 µM
OCc1nnc(-c2ccc(N3CCC(Oc4ccccc4C(F)(F)F)CC3)nn2)o1 | Huh7 | PCR | - | 50% human serum | GT1b | >40 µM
CCN(CC)C(=O)c1sc2nc(-c3ccccc3)cc(C(F)(F)F)c2c1N | Huh7 | MTT | - | - | - | 3.5 µM
CC1CCC(C(=O)N(CC2CCOCC2)c2cc(-c3ccc(-c4cc5ncccn5n4)cc3)sc2C(=O)O)CC1 | - | replicon / ELISA | - | - | 1b | 0.001–0.0049 µM
CCOc1nc(NCc2ccc(F)cc2)nc2ccc(-c3ccc4[nH]ncc4c3)nc12 | - | replicon | - | - | - | <0.1 µM
Nc1nc2cnc(N3CCC(Oc4cc(F)ccc4Br)CC3)nc2s1 | Huh7 | PCR | - | 50% human serum | GT1b | >40 µM
CC1(C)CC(=O)C2=C(C1)Nc1c(O)cccc1NC2c1ccc(OCc2ccc(F)cc2)cc1F | - | luciferase / reporter gene / replicon | - | - | 1b | 8.33 µM
O=C(O)c1sc(-c2ccc(-c3cc4ncccn4n3)cc2)cc1N(C(=O)c1ccc(Cl)cc1Cl)C1CCOCC1 | - | luciferase / replicon | - | - | 1b | 0.01–0.05 µM
COC(=O)N[C@H](C(=O)N1CCC[C@H]1c1ncc(-c2ccc(-c3ccc(-c4cnc([C@@H]5CCCN5C(=O)[C@@H](NC(=O)OC)C(C)C)[nH]4)cc3)cc2)[nH]1)C(C)C | ET | luciferase | Y93H | - | 1b | 0.00044 µM
CS(=O)(=O)CCNc1nc(NCc2ccc(F)cc2)nc2ccc(-c3ccc(C(N)=O)cc3)nc12 | - | replicon | - | - | - | <0.1 µM
COCCN(C(=O)C1CCC(C(F)(F)F)CC1)c1cc(-c2ccc(-c3cc4ncccc4o3)cc2)sc1C(=O)O | - | replicon / ELISA | - | - | 1b | 0.1–0.49 µM
CCCCOc1ccc(N(C(N)=O)c2nc(-c3ccccn3)cs2)cc1C(F)(F)F | - | - | - | - | - | <1 µM
NS(=O)(=O)c1ccc(CNc2nc(Nc3cccc(F)c3)c3nc(-c4ccc(F)cc4)ccc3n2)cc1 | - | replicon | - | - | - | <0.1 µM
CC(C)COc1ccc(N(C(N)=O)c2nc(-c3ccc(O)c(C(N)=O)c3)cs2)cc1C(F)(F)F | - | - | - | - | - | <1 µM
CCCCCCCCCCCCCCOC(=O)NC(CCC(=O)O)(CCC(=O)O)CCC(=O)O | Huh7-SGcon1b | replicon / PCR | - | - | 1b | 0.0252 µM
CC1CCC(C(=O)N(c2cc(-c3ccc(-c4cc5ncccn5n4)cc3)sc2C(=O)O)C2CCC(O)CC2)CC1 | - | replicon / ELISA | - | - | 1a | 0.01–0.049 µM
CCOC(=O)c1c(CSc2cccs2)n(C)c2cc(Br)c3c(c12)CN(C)CO3 | Huh7 | ELISA | - | - | Genotype 1A | 12.8 µM
CC(C)C(=O)N1c2cccc(O)c2NC2=C(C(=O)CC(C)(C)C2)C1c1ccc(COc2ccc(F)cc2F)o1 | - | luciferase / reporter gene / replicon | - | - | 1b | 4.33 µM
COC(=O)N[C@H](C(=O)N[C@@H](C)c1ncc(-c2ccc(-c3ccc(-c4cnc([C@@H](C)NC(=O)[C@H](NC(=O)OC)c5ccccc5)[nH]4)cn3)nc2)[nH]1)c1ccccc1 | - | - | - | - | 1b | 0.001–0.099 µM
COCC(C)N(C(=O)C1CCC(C)CC1)c1cc(-c2ccccc2)sc1C(=O)O | - | replicon / ELISA | - | - | 1a | 0.1–0.49 µM
O=C(N[C@@H](C(=O)N1CCC[C@H]1c1ncc(-c2ccc(-c3ccc(-c4cnc([C@@H]5CCCN5C(=O)[C@H](NC(=O)C5CC5)c5ccccc5)s4)cc3)cc2)s1)c1ccccc1)C1CC1 | Huh7.5 | luciferase / reporter gene | M202L | - | genotype 1b | 0.0000021 µM
Cc1ccc(Sc2cc(=O)n(C)c3ncccc23)cc1 | Huh-Luc-Neo | luciferase / replicon | - | - | - | <1 µM
C[C@@H](c1ncc(-c2ccc(-c3ncc(-c4cnc([C@H]5CCCN5C(=O)[C@@H](c5ccccc5)N(C)C)[nH]4)cn3)cc2)[nH]1)N(C)C(=O)[C@@H](c1ccccc1)N(C)C | - | - | - | - | 1b | 0.001–0.099 µM
OCc1nnc(-c2ccc(N3CCC(Oc4cc(F)ccc4Br)CC3)nn2)o1 | Huh7 | PCR | - | - | GT1a | 0.0009 µM
CCOc1nc(NCc2ccc(S(N)(=O)=O)cc2)nc2ccc(-c3ccc(F)c(NS(=O)(=O)C4CC4)c3)nc12 | - | replicon | - | - | - | <0.1 µM
CCOC(=O)c1c(CSc2ccccc2)n(C)c2cc(C#N)c(O)c(CN(N3CCC(CO)CC3)N3CCC(CO)CC3)c12 | Huh7 | ELISA | - | - | Genotype 1A | 51.8 µM
CCOCCN(C(=O)C1CCC(C)CC1)c1cc(-c2ccc(-c3cc4ncccc4o3)cc2)sc1C(=O)O | - | replicon / ELISA | - | - | 1b | 0.005–0.0099 µM
Cc1ccc(Nc2nc(NC(C)C)c3nc(-c4ccc(F)cc4)ccc3n2)nn1 | - | replicon | - | - | - | 0.25–2 µM
COC(=O)N[C@@H](C(=O)N1CCC[C@@H]1c1ncc(-c2ccc(-c3ncc(-c4cnc([C@H]5CCCN5C(=O)[C@@H](c5ccccc5)N5CCCCC5)[nH]4)cn3)cc2)[nH]1)c1ccccc1 | - | - | - | - | 1b | 0.00001–0.000999 µM
CN(C)CC(=O)N(c1ccc(OCCCCc2cccs2)c(C(F)(F)F)c1)c1nc(-c2cccnc2)c(F)s1 | - | - | - | - | - | <1 µM
Fc1ccccc1-c1nc2cc[n+](Cc3ccc(-c4ccc(C(F)(F)F)cc4C(F)(F)F)nn3)cc2[nH]1 | Con-1 | luciferase | - | - | - | 0.0159 µM
COc1nc(NCc2ccc(F)cc2)nc2ccc(-c3ccc(F)cc3)nc12 | - | replicon | - | - | - | <0.1 µM
COC(=O)N[C@H](C(=O)N1CCC[C@@H]1c1ncc(-c2ccc(-c3ncc(-c4cnc([C@H]5CCCN5C(=O)[C@@H](NC(=O)OC)C5CC5)[nH]4)cn3)cc2)[nH]1)C1CC1 | - | - | - | - | 1b | 0.00001–0.000999 µM
Nc1c(C(=O)N2CCn3c(nnc3C(F)(F)F)C2)sc2nc(-c3ccccc3)cc(C(F)(F)F)c12 | Huh7 | MTT | - | - | - | 3.3 µM
CCCCCOc1ccc(N(C(=O)c2cc(C)on2)c2nc(-c3cccnc3)cs2)cc1C(F)(F)F | - | - | - | - | - | <1 µM
CCOc1nc(NCc2ccc(S(N)(=O)=O)cc2)nc2ccc(-c3ccc(NC(=O)OCCN4CCCC4)cc3)nc12 | - | replicon | - | - | - | <0.1 µM
Cn1c(=O)cc(Sc2ccc(NC(=O)[C@H](Cc3ccc(F)cc3)NC(=O)OC(C)(C)C)cc2)c2ccccc21 | Huh-Luc-Neo | luciferase / replicon | - | - | - | 1–10 µM
Cc1nc(C(=O)N2c3cccc(O)c3NC3=C(C(=O)CC(C)(C)C3)C2c2ccc(OCc3ccccc3)cc2F)c(-c2ccccc2)o1 | - | luciferase / reporter gene / replicon | - | - | 1b | 0.83 µM
CCCCCOc1ccc(N(C(=O)OC)c2nc(-c3ccncc3)cs2)cc1C(F)(F)F | - | - | - | - | - | <1 µM
CC1(C)CC(=O)C2=C(C1)Nc1c(O)cccc1NC2c1ccc(OCc2ccccc2)cc1F | - | luciferase / reporter gene / replicon | - | - | 1b | 3.71 µM
CCOC(=O)c1c(CSc2ccccc2)n(C)c2cc(C#N)c(O)c(CN(N(C)C)N(C)C)c12 | Huh7.3 | ELISA | - | - | - | 33.9 µM
CC(C)N(C(=O)c1ccc(Cl)cc1Cl)c1cc(-c2ccc(-c3nn[nH]n3)cc2)sc1C(=O)O | - | replicon / ELISA | - | - | 1b | >5 µM
Cc1[nH]c(NC(=O)C(C)c2ccccc2)nc1-c1ccc(Cl)cc1 | Huh7 | luciferase | - | - | 1b | >10 µM
CCN(CC)[C@H](C)C(=O)N1CCC[C@@H]1c1ncc(-c2cnc(-c3ccc(-c4nc([C@H]5CCCN5C(=O)[C@H](C)N(CC)CC)[nH]c4C(F)(F)F)cc3)nc2)[nH]1 | - | - | - | - | 1b | 0.00001–0.000999 µM
COCCN(C(=O)C1CCC(C)CC1)c1cc(-c2ccc(-c3cc4nccc(N)n4n3)cc2)sc1C(=O)O | - | replicon / ELISA | - | - | 1b | 0.001–0.0049 µM
CNC(=O)c1c(-c2ccc(F)cc2)oc2cc(N(Cc3ccc(B(O)O)c(F)c3)S(C)(=O)=O)c(C3CC3)cc12 | Huh7.5 | luciferase | - | - | JFH1 Genotype 2a | 0.0076 µM
CCCCCCOc1ccc(N(C(N)=O)c2nc(-c3ccc(F)cc3)cs2)cc1 | - | - | - | - | - | <1 µM
CC1CCC(C(=O)N(CC2CCOCC2)c2cc(-c3ccc(-c4cn5ccccc5n4)cc3)sc2C(=O)O)CC1 | - | replicon / ELISA | - | - | 1b | 0.005–0.0099 µM
CCN(CC)[C@@H](C(=O)N1CCC[C@@H]1c1ncc(-c2ccc(-c3ncc(-c4cnc([C@H]5CCCN5C(=O)[C@@H](NC(=O)OC)C(C)C)[nH]4)cn3)cc2)[nH]1)c1ccccc1 | - | - | - | - | 1b | 0.00001–0.000999 µM
COc1ccc(-c2nc(NC(=O)C(C)c3ccccc3)[nH]c2C)cc1S(C)(=O)=O | Huh7 | luciferase | - | - | 1a | 0.378 µM
CC(C)N(C(=O)c1ccc(Cl)cc1F)c1cc(-c2ccc(-c3cn4ccccc4n3)cc2)sc1C(=O)O | - | replicon / ELISA | - | - | 1a | 0.01–0.05 µM
C[C@H](OCc1ccccc1)[C@@H](NC(=O)OC(C)(C)C)C(=O)Nc1ccc(Sc2cc(=O)n(C)c3ccccc23)cc1 | Huh-Luc-Neo | luciferase / replicon | - | - | - | 1–10 µM
O=C(c1cc2c(C(F)(F)F)cc(-c3ccccc3)nc2s1)N1CCOCC1 | Huh7 | MTT | - | - | - | 4.5 µM
CCCCCOc1ccc(N(C(=O)CO)c2nc(-c3cccnc3)cs2)cc1C(F)(F)F | - | - | - | - | - | <1 µM
CC(C)N(C(=O)c1ccc(Cl)cc1Cl)c1cc(-c2ccc(-c3cc4nccc(N)n4n3)cc2)sc1C(=O)O | - | replicon / ELISA | - | - | 1a | 0.01–0.05 µM
Cn1c(=O)cc(Sc2ccc(NC(=O)[C@@H](NC(=O)OC(C)(C)C)C3CCCCC3)cc2)c2ccccc21 | Huh-Luc-Neo | luciferase / replicon | - | - | - | <1 µM
O=C(O)c1sc(-c2ccc(-c3cc4ncccc4o3)cc2)cc1N(C(=O)C1CCC(C(F)(F)F)CC1)C1CCOCC1 | - | replicon / ELISA | - | - | 1b | 0.01–0.049 µM
CCOC(=O)c1c(CSc2ccccc2)n(C)c2cc(-c3cccnc3)c3c(c12)CN(C)CO3 | Huh7 | ELISA | - | - | Genotype 1A | 20.2 µM
COc1ccc(-c2nc(NC(=O)[C@@H](C)c3ccc(Cl)cc3)[nH]c2C)cc1S(C)(=O)=O | Huh7 | luciferase | - | - | 1b | 0.056 µM
CCOC(=O)c1c(CS(=O)(=O)c2ccccc2)n(C)c2cc(-c3cccnc3)c(O)c(CN(C)C)c12 | Huh7 | ELISA | - | - | Genotype 1A | 29.9 µM
CC(C)N(C(=O)c1ccc(Cl)cc1F)c1cc(-c2ccccc2)sc1C(=O)O | - | replicon / ELISA | - | - | 1b | 1–5 µM
CC(=O)N1c2cccc(O)c2NC2=C(C(=O)CC(C)(C)C2)C1c1ccc(OCc2ccccc2)cc1Cl | - | luciferase / reporter gene / replicon | - | - | 1b | 1.43 µM
CCCCn1c(=O)c2ccccc2c2cc(C(O)(C(F)(F)F)C(F)(F)F)c3c(c21)OCO3 | #50-1 | PCR | - | - | 1b | 0.97 µM
CC1(C)CC(=O)C2=C(C1)Nc1c(O)cccc1N(C(=O)C(N)=O)C2c1ccc(OCc2ccccc2)cc1F | - | luciferase / reporter gene / replicon | - | - | 1b | 9.12 µM
NC(CO)C(=O)Nc1ccc(-c2ccc3nc(NCc4ccc(S(N)(=O)=O)cc4)nc(NCC(F)(F)F)c3n2)cc1 | - | replicon | - | - | - | <0.1 µM

A second listing of 9 rows from above:

SMILES | cells | method | changes | conditions | strain or isolate | result
CC(C)CC[C@@]1(C)C(=O)C(C2=NS(=O)(=O)c3cc(NS(C)(=O)=O)ccc3N2)=C(O)c2ccccc21 | Huh7 | luciferase | - | - | 1b | 0.0037 µM
OCc1nnc(-c2ccc(N3CCC(Oc4ccccc4C(F)(F)F)CC3)nn2)o1 | Huh7 | PCR | - | 50% human serum | GT1b | >40 µM
Nc1nc2cnc(N3CCC(Oc4cc(F)ccc4Br)CC3)nc2s1 | Huh7 | PCR | - | 50% human serum | GT1b | >40 µM
O=C(O)c1sc(-c2ccc(-c3cc4ncccn4n3)cc2)cc1N(C(=O)c1ccc(Cl)cc1Cl)C1CCOCC1 | - | luciferase / replicon | - | - | 1b | 0.01–0.05 µM
Nc1c(C(=O)N2CCn3c(nnc3C(F)(F)F)C2)sc2nc(-c3ccccc3)cc(C(F)(F)F)c12 | Huh7 | MTT | - | - | - | 3.3 µM
CCCCn1c(=O)c2ccccc2c2cc(C(O)(C(F)(F)F)C(F)(F)F)c3c(c21)OCO3 | #50-1 | PCR | - | - | 1b | 0.97 µM
CC1CCC(C(=O)N(CC2CCOCC2)c2cc(-c3ccc(-c4cc5ncccn5n4)cc3)sc2C(=O)O)CC1 | - | replicon / ELISA | - | - | 1b | 0.001–0.0049 µM
Cn1c(=O)cc(Sc2ccc(NC(=O)[C@H](Cc3ccc(F)cc3)NC(=O)OC(C)(C)C)cc2)c2ccccc21 | Huh-Luc-Neo | luciferase / replicon | - | - | - | 1–10 µM
COCCN(C(=O)C1CCC(C(F)(F)F)CC1)c1cc(-c2ccc(-c3cc4ncccc4o3)cc2)sc1C(=O)O | - | replicon / ELISA | - | - | 1b | 0.1–0.49 µM

a–b is a range or a potency band. ECn: concentration that inhibits the pathogen or its effect by n%. Blank or dashed fields: not listed here.